Data: publication PMC6479402, “Anti-Herpetic, Anti-Dengue and Antineoplastic Activities of Simple and Heterocycle-Fused Derivatives of Terpenyl-1,4-Naphthoquinone and 1,4-Anthraquinone” (Molecules, 2019)

Tests used:
Jurkat = assay: MTT cytotoxicity assay; format: cell-based, human; conditions: Jurkat vs Vero; 48 h
Protocol: (§1) Then, each diluted molecule was added to the cells and incubated for further 48 h at 37 °C, 5% CO2. […] The DMSO was then added to dissolve the formed formazan crystals and absorbance was determined spectrophotometrically at 570 nm. […] IC50 values were expressed as the mean ± standard deviation (M ± SD) of two independent experiments done in quadruplicate.

HeLa = assay: MTT cytotoxicity assay; format: cell-based, human; conditions: HeLa vs Vero; 48 h
Protocol: as §1

SMILES | SI (IC50 Vero/IC50 Jurkat) (Jurkat) | SI (IC50 Vero/IC50 HeLa) (HeLa)
CC1(C)CCCc2cc3c(cc21)C(=O)C(Cl)=C(Cl)C3=O [AQ 12] | 5 | 4
Cc1ccc2[nH]c3c(c2c1)C(=O)c1ccc(CCCC(C)C)cc1C3=O [HetQ 19] | <3 | 3
Cc1cc(C)c2c3c(oc2c1)C(=O)c1cc(CCCC(C)C)ccc1C3=O [HetQ 20] | 4 | <2
CCn1c(C)c(C(=O)OC)c2c1C(=O)c1cc3c(cc1C2=O)C(C)(C)CCC3 [HetQ 22] | 3 | 3
CC(C)CCCc1ccc2c(c1)C(=O)C(Br)=C(Br)C2=O [NQ 5] | 1 | 1
